Results of unrelated studies side by side (data: NIAID ChemDB).

Common to all: tests in culture; organism: HIV-1

An empty or dashed field is not shown.

structure	cell line	mutations	strain	setting	read by	endpoint	value
O=C(CN1c2c(-c3ccccc3)n[nH]c2-c2ccccc2S1(=O)=O)N/N=C/c1ccc(Br)cc1	PBMC	-	-	-	-	EC50	4.1 µM
Cc1ccccc1CNc1nc2cc(C(=O)NC(C)(CO)CO)ccc2n1C1CCCCCC1	H9	-	-	20% FBS	syncytia	EC50	18 µM
Nc1ncnc2c1nnn2[C@@H]1O[C@H](CO)[C@@H](O)[C@H]1O	MT-4	-	-	-	cytopathic effect	EC50	>0.3 µM
Cc1cccc(CNc2nc3cc(C(=O)NC(C)(CO)CO)ccc3n2C2CCCCCC2)c1C	H9	-	-	20% FBS	syncytia	EC50	5 µM
Cc1ccc2sn(/N=C/c3ccccc3F)c(=O)c2c1	MT-4	Y181C	-	-	MTT	EC50	>18 µM
Cc1cn([C@@H]2O[C@@H]3CN[C@@]4(OCC5CCOC5)CS(=O)(=O)O[C@@]34[C@H]2O[Si](C)(C)C(C)(C)C)c(=O)[nH]c1=O	MT-4	-	IIIB	-	-	EC50	>10 µM
Cc1ccnc2c1NC(=O)c1cccnc1N2C1CC1	TZM-bl	-	NL4-3	-	luciferase / luminescence	EC50	0.06129 µM
Cc1cc(C)cc(CNc2nc3cc(C(=O)NC(C)CO)ccc3n2C2CCCCCC2)c1	H9	-	-	2% FBS	syncytia	EC50	0.6 µM
COc1cccc2ccc(/C=C/C(=O)Nc3ccc(Cl)cc3)nc12	TZM-bl	-	VB59	-	luminescence	EC50	124 µM
CCCCO[C@]12CS(=O)(=O)O[C@@]13[C@@H](CN2)O[C@@H](n1cc(C)c(=O)[nH]c1=O)[C@@H]3O	MT-4	-	IIIB	-	-	EC50	>125 µM
COc1cc(/C=C/c2nc(NC(=O)Nc3ccccc3Cl)c3ccccc3n2)cc(OC)c1OC	MT-4	-	IIIB	-	MTT	EC50	>1.69 µg/mL
CN1c2c(-c3ccccc3)nn(CC(=O)N/N=C/c3ccc(Br)cc3)c2-c2ccccc2S1(=O)=O	PBMC	-	LAV-1	-	RT activity	EC90	>100 µM
COc1cccc2ccc(-c3nnc(-c4ccc(N(C)C)cc4)o3)nc12	TZM-bl	-	VB59	-	luminescence	EC50	75.2 µM
Clc1ccc(Nc2nccs2)cc1OCC1CCCCC1	MT-2	-	IIIB	-	cytopathic effect / MTT	EC50	>15 µM
CC(CO)(CO)NC(=O)c1ccc2c(c1)nc(NCc1cccc3ccccc13)n2C1CCCCCC1	H9	-	-	2% FBS	syncytia	EC50	5 µM
Cc1ccc2sn(/N=C/c3ccc([N+](=O)[O-])cc3[N+](=O)[O-])c(=O)c2c1	MT-4	EFV-resistant (K103 V179D P225H)	-	-	MTT	EC50	>100 µM
COc1cc(/C=C/c2nc(NC(=O)Nc3ccc(Cl)cc3)c3ccccc3n2)cc(OC)c1OC	MT-4	-	IIIB	-	MTT	EC50	>4.97 µg/mL
O=C(CN1c2c(-c3ccccc3)n[nH]c2-c2ccccc2S1(=O)=O)N/N=C/c1ccc(Cl)cc1	PBMC	-	-	-	-	EC90	29.7 µM
CN1c2c(-c3ccccc3)nn(CC(=O)N/N=C/c3cccc(Br)c3)c2-c2ccccc2S1(=O)=O	PBMC	-	LAV-1	-	RT activity	EC50	>100 µM
O=c1c2ccccc2sn1/N=C/c1ccc(Cl)cc1	MT-4	K103N + Y181C	-	-	MTT	EC50	>26 µM
Cc1ccc(C)c(C(C)S(=O)(=O)c2ccc(C)c[n+]2[O-])c1	CEM	RT-E103K	IIIB	-	syncytia	EC50	60 µg/mL
CCO[C@]12CS(=O)(=O)O[C@@]13[C@@H](CN2)O[C@@H](Sc1ccccc1)[C@@H]3O[Si](C)(C)C(C)(C)C	CEM	-	IIIB	-	-	EC50	>10 µM
Nc1nc2c(ncn2[C@H]2CC[C@@H](CO)C2)c(=O)[nH]1	MT-2	-	IIIB	-	cytopathic effect	EC50	>100 µg/mL
CN1c2c(-c3ccccc3)nn(CC(=O)N/N=C/c3cccc([N+](=O)[O-])c3)c2-c2ccccc2S1(=O)=O	PBMC	-	LAV-1	-	RT activity	EC90	>100 µM
CN(C)c1ccc(/C=N/NC(=O)CN2c3c(-c4ccccc4)n[nH]c3-c3ccccc3S2(=O)=O)cc1	PBMC	-	-	-	-	EC50	>100 µM
COc1cc(/C=C/c2nc(NC(=O)Nc3ccccc3C)c3ccccc3n2)cc(OC)c1OC	MT-4	-	IIIB	-	MTT	EC50	>1.89 µg/mL
Cc1ccnc2c1NC(=O)c1cccnc1N2C1CC1	MT-4	MDR (74V 41L 106A 215Y)	-	-	MTT	EC50	5 µM
O=C(CN1c2c(-c3ccccc3)n[nH]c2-c2ccccc2S1(=O)=O)N/N=C/c1cccc([N+](=O)[O-])c1	PBMC	-	-	-	-	EC90	30.2 µM
Cc1ccc2sn(/N=C/c3ccccc3[N+](=O)[O-])c(=O)c2c1	MT-4	Y181C	-	-	MTT	EC50	>100 µM
COc1ccc(NC(=O)/C=C/c2ccc3cccc(OC)c3n2)cc1	TZM-bl	-	VB59	-	luminescence	EC50	10.38 µM
OC[C@H]1O[C@@H](n2nc3ccnc(Cl)c3n2)[C@H](O)[C@@H]1O	MT-4	-	-	-	cytopathic effect	EC50	>398 µM
O=C(CN1c2c(-c3ccccc3)n[nH]c2-c2ccccc2S1(=O)=O)N/N=C/c1c(Cl)cccc1Cl	PBMC	-	-	-	-	EC90	52.5 µM
CN1c2c(-c3ccccc3)nn(CC(=O)N/N=C/c3c(Cl)cccc3Cl)c2-c2ccccc2S1(=O)=O	PBMC	-	LAV-1	-	RT activity	EC50	>100 µM
COc1cc(/C=C/c2nc(NC(=O)Nc3ccccc3)c3ccccc3n2)cc(OC)c1OC	MT-4	-	IIIB	-	MTT	EC50	>2.13 µg/mL
O=c1c2ccccc2sn1/N=C/c1ccc(O)cc1O	MT-4	K103N + Y181C	-	-	MTT	EC50	>21 µM
Cc1cn([C@H]2C[C@H](N=[N+]=[N-])[C@@H](CO)O2)c(=O)[nH]c1=O	MT-4	EFV-resistant (K103R V179D P225H)	-	-	MTT	EC50	0.02 µM
CCOc1cc(/C=N/NC(=O)Cn2nc(-c3ccccc3)c3c2-c2ccccc2S(=O)(=O)N3C)ccc1O	PBMC	-	LAV-1	-	RT activity	EC50	5.4 µM
Nc1nc(N)c2ncn([C@H]3CC[C@@H](CO)C3)c2n1	MT-2	-	IIIB	-	cytopathic effect	EC50	16.7 µg/mL
COc1cccc2ccc(-c3nnc(-c4ccc(C(C)(C)C)cc4)o3)nc12	TZM-bl	-	UG070	-	luminescence	EC50	63.16 µM
COc1cc(/C=N/n2sc3ccccc3c2=O)ccc1O	MT-4	EFV-resistant (K103 V179D P225H)	-	-	MTT	EC50	>15 µM
C/C=C/CSc1cc(NC(=S)c2ccsc2C)ccc1Cl	CEM + CEM-SS	RT-V179D	NL4-3	-	p24	EC50	0.7 µM
CN1c2c(-c3ccccc3)nn(CC(=O)N/N=C/c3ccccc3F)c2-c2ccccc2S1(=O)=O	PBMC	-	LAV-1	-	RT activity	EC90	>100 µM
Cc1cn([C@@H]2OC3CN[C@@]4(OCC(C)C)CS(=O)(=O)O[C@@]34[C@H]2O[Si](C)(C)C(C)(C)C)c(=O)[nH]c1=O	CEM	-	IIIB	-	-	EC50	8 µM
COCc1ccnc(Nc2ccc(Cl)c(OCC=C(C)C)c2)n1	MT-2	-	IIIB	-	cytopathic effect / MTT	EC50	>25 µM
CCS[C@]12CS(=O)(=O)O[C@@]13[C@@H](CN2)O[C@@H](n1cc(C)c(=O)[nH]c1=O)[C@@H]3O	MT-4	-	IIIB	-	-	EC50	111 µM
Nc1nccc2c1nnn2[C@@H]1O[C@H](CO)[C@@H](O)[C@H]1O	MT-4	-	-	-	cytopathic effect	EC50	>398 µM
N#Cc1ccc(Nc2nccs2)cc1OCC1=CCCC1	MT-2	-	IIIB	-	cytopathic effect / MTT	EC50	>1.7 µM
CCCCNC(=O)c1ccc2c(c1)nc(NCc1cccc3ccccc13)n2C1CCCCCC1	H9	-	-	20% FBS	syncytia	EC50	0.3 µM
O=c1c2ccccc2sn1/N=C/c1cccc(O)c1	MT-4	-	-	-	MTT	EC50	>15 µM
CCCCCC1=NN(C(=O)CCOC(C)=O)OC(CCCCC)C1	MT-2	-	NL4-3	-	luciferase	EC50	0.084 µM
C#C[C@@]1(COP(=O)(O)OP(=O)(O)OP(=O)(O)O)C=C[C@H](n2cc(C)c(=O)[nH]c2=O)O1	TZM-bl	T165A	NL4-3	-	luciferase	EC50	0.8 µM
Nc1ncnc2c1ncn2[C@H]1CC[C@@H](CO)O1	MT-4	-	-	-	cytopathic effect	EC50	12 µM
N#Cc1ccc(Nc2nccs2)cc1OCc1cccs1	MT-2	-	IIIB	-	cytopathic effect / MTT	EC50	>4.1 µM
C#CCO[C@]12CS(=O)(=O)O[C@@]13[C@@H](CN2)O[C@@H](n1cc(C)c(=O)[nH]c1=O)[C@@H]3O[Si](C)(C)C(C)(C)C	CEM	-	IIIB	-	-	EC50	>25 µM
CCN(Cc1cccc(C)c1)c1nc2cc(C(=O)NC(C)CO)ccc2n1C1CCCCCC1	H9	-	-	2% FBS	syncytia	EC50	1.5 µM
O=C(CN1c2c(-c3ccccc3)n[nH]c2-c2ccccc2S1(=O)=O)N/N=C/c1cccc(Cl)c1	PBMC	-	-	-	-	EC90	43.4 µM
COc1ccc(NC(=S)Nc2nc(/C=C/c3cc(OC)c(OC)c(OC)c3)nc3ccccc23)cc1	MT-4	-	IIIB	-	MTT	EC50	>4.43 µg/mL
Nc1nccc2c1ncn2[C@@H]1O[C@H](CO)[C@@H](O)[C@H]1O	MT-4	-	-	-	cytopathic effect	EC50	>218 µM
C/C1=C\C=C\C2(C)C=C(CO[C@H]3O[C@H](CO)[C@H](O)[C@H](O)[C@H]3O)C(C)CC23OC([O-])C(C3=O)C(O)/C=C/C2(C)C=C(C=O)C(C)CC23OC([O-])C(C3=O)C(O)/C(C)=C/C=C/C2C=C(CO[C@H]3O[C@H](CO)[C@H](O)[C@H](O)[C@H]3O)C(C)CC23OC([O-])C(C3=O)C(O)/C=C/C2(C)C=C(C=O)C(C)CC23OC([O-])C(C3=O)C1O	MOLT-4/(MOLT-4/1(IIIB) + MOLT-4	-	IIIB	-	syncytia	EC50	>100 µg/mL
O=C(CN1c2c(-c3ccccc3)n[nH]c2-c2ccccc2S1(=O)=O)N/N=C/c1ccc(Cl)cc1Cl	PBMC	-	-	-	-	EC90	95.4 µM
CC(C)=CCOc1cc(Nc2nc(C)cc(N)n2)ccc1Cl	MT-2	-	IIIB	-	cytopathic effect / MTT	EC50	>0.004 µM
NNC(=O)CN1c2c(-c3ccccc3)n[nH]c2-c2ccccc2S1(=O)=O	PBMC	-	-	-	-	EC90	>100 µM
COc1ccc(C)cc1CS(=O)(=O)c1cccc[n+]1[O-]	CEM	RT-Y181C	IIIB	-	syncytia	EC50	50 µg/mL
COc1cc(/C=C/c2nc(NC(=S)Nc3cccc(Cl)c3)c3ccccc3n2)cc(OC)c1OC	MT-4	-	IIIB	-	MTT	EC50	>3.25 µg/mL
Cc1ccc2sn(/N=C/c3cccc(O)c3)c(=O)c2c1	MT-4	K103N + Y181C	-	-	MTT	EC50	>16 µM

Repeating the first 8 entries:

structure,cell line,mutations,strain,setting,read by,endpoint,value
O=C(CN1c2c(-c3ccccc3)n[nH]c2-c2ccccc2S1(=O)=O)N/N=C/c1ccc(Br)cc1,PBMC,-,-,-,-,EC50,4.1 µM
Cc1ccccc1CNc1nc2cc(C(=O)NC(C)(CO)CO)ccc2n1C1CCCCCC1,H9,-,-,20% FBS,syncytia,EC50,18 µM
Nc1ncnc2c1nnn2[C@@H]1O[C@H](CO)[C@@H](O)[C@H]1O,MT-4,-,-,-,cytopathic effect,EC50,>0.3 µM
Cc1cccc(CNc2nc3cc(C(=O)NC(C)(CO)CO)ccc3n2C2CCCCCC2)c1C,H9,-,-,20% FBS,syncytia,EC50,5 µM
Cc1ccc2sn(/N=C/c3ccccc3F)c(=O)c2c1,MT-4,Y181C,-,-,MTT,EC50,>18 µM
Cc1cn([C@@H]2O[C@@H]3CN[C@@]4(OCC5CCOC5)CS(=O)(=O)O[C@@]34[C@H]2O[Si](C)(C)C(C)(C)C)c(=O)[nH]c1=O,MT-4,-,IIIB,-,-,EC50,>10 µM
Cc1ccnc2c1NC(=O)c1cccnc1N2C1CC1,TZM-bl,-,NL4-3,-,luciferase / luminescence,EC50,0.06129 µM
Cc1cc(C)cc(CNc2nc3cc(C(=O)NC(C)CO)ccc3n2C2CCCCCC2)c1,H9,-,-,2% FBS,syncytia,EC50,0.6 µM

Lines come from different laboratories, so protocols vary. ECn: concentration that inhibits the pathogen or its effect by n%.